Compound potency records, mixed from different reports. Data source: NIAID ChemDB in PubChem.

Common to all: whole-cell or culture tests; agent: HIV-2; method: cytopathic effect / MTT; read-out: EC50

Rows are shuffled and stem from different studies.

SMILES | cell line | strain | value
Cc1cccc(Nn2cnc(C)c2-c2cccc(C#N)c2)c1 | MT-4 | ROD | >44.7 µM
CCCCCCC(C)[C@H]1CCC2C3CC[C@H]4C[C@@H](CCC=C(c5cc(Cl)c(O)c(C(=O)O)c5)c5cc(Cl)c(O)c(C(=O)O)c5)CC[C@]4(C)C3CC[C@@]21C | CEM + CEM-SS | ROD | 4 µM
COc1ccc(CCN2C(=O)/C(=C\c3ccc(N(C)C)cc3)N(CCc3ccc(OC)c(OC)c3)C2=S)cc1OC | MT-4 | ROD | >19.1 µg/mL
CCc1nc(NCN2C(=O)C(=Nc3ccc(S(=O)(=O)Nc4ncnc(OC)c4OC)cc3)c3ccccc32)nc(N)c1-c1ccc(Cl)cc1 | MT-4 | ROD | >2 µg/mL
O=C1C=CC(=C(c2ccc(O)cc2)c2ccc(O)cc2)C=C1 | MT-4 | ROD | >100 µg/mL
Clc1cccc(-c2nnc3sc(CC45CC6CC(CC(C6)C4)C5)nn23)c1 | MT-4 | ROD | >125 µg/mL
COC(=O)/C=C1\S/C(=N/N=C/c2c(F)cccc2Cl)NC1=O | MT-4 | ROD | >52.7 µM
COc1c(Cl)cc(C(=CCC(=O)N[C@@H]2CC[C@@]3(C)[C@@H](CC[C@@H]4[C@@H]3CC[C@]3(C)[C@@H]([C@H](C)CCCC(C)C)CC[C@@H]43)C2)c2cc(Cl)c(OC)c(C(=O)O)c2)cc1C(=O)O | MT-4 | ROD | >6 µM
COc1ncnc(NS(=O)(=O)c2ccc(N=C3C(=O)N(CN(C)C)c4ccccc43)cc2)c1OC | MT-4 | ROD | >2 µg/mL
CC(C)c1c(Cc2ccccc2)n(CCCO)c(=O)[nH]c1=O | MT-4 | EHO | >100 µM
COc1ccc(CCN2C(=O)/C(=C\c3ccccc3-c3ccco3)N(CCc3ccc(OC)c(OC)c3)C2=S)cc1OC | MT-4 | ROD | >17.3 µg/mL
Cc1c(Cc2ccccc2)nc(OC2CCCCC2)[nH]c1=O | MT-4 | ROD | >200 µM
Cc1cc(C)cc(Nn2cnc(C)c2-c2ccccc2)c1 | MT-4 | ROD | >20.44 µM
O=c1cc(Cc2ccccc2)nc(OC2CCCC2)[nH]1 | MT-4 | ROD | >200 µM
CC(C)c1c(Cc2ccccc2)n(CCCC(N)=O)c(=O)[nH]c1=O | MT-4 | EHO | >100 µM
Fc1ccc(-c2nnc3sc(CC45CC6CC(CC(C6)C4)C5)nn23)cc1 | MT-4 | ROD | >65.33 µg/mL
COc1ccc(Nc2nn3c(=O)c4ccccc4nc3s2)cc1 | MT-4 | ROD | >97.4 µg/mL
COC(=O)/C=C1\S/C(=N/N=C/c2ccc(OCc3ccccc3)cc2)NC1=O | MT-4 | ROD | >97.45 µM
CC(C)=CCN1Cc2cccc3[nH]c(=O)n(c23)CC1C | MT-4 | EHO | >870 µM
COc1c(Cl)cc(C(=CCN[C@@H]2CC[C@@]3(C)[C@@H](CC[C@@H]4[C@@H]3CC[C@]3(C)[C@@H]([C@H](C)CCCC(C)C)CC[C@@H]43)C2)c2cc(Cl)c(OC)c(C(=O)O)c2)cc1C(=O)O | MT-4 | ROD | >87 µM
Clc1cccc(Nn2cnc3c2CCCC3)c1 | MT-4 | ROD | >67.29 µM
CC(=O)NS(=O)(=O)c1c(C)cc(C)c(-c2c3nc(c(-c4c(C)cc(C)c(S(=O)(=O)NC(C)=O)c4C)c4ccc([nH]4)c(-c4c(C)cc(C)c(S(=O)(=O)NC(C)=O)c4C)c4nc(c(-c5c(C)cc(C)c(S(=O)(=O)NC(C)=O)c5C)c5ccc2[nH]5)C=C4)C=C3)c1C | MT-4 | ROD | ≥75 µg/mL
Cc1cc(O)ccc1O | MT-4 | ROD | >100 µg/mL
Cc1ccccc1-c1nnc2sc(CC34CC5CC(CC(C5)C3)C4)nn12 | MT-4 | ROD | >11.5 µg/mL
COC(=O)/C=C1\S/C(=N/N=C/c2ccccc2Br)NC1=O | MT-4 | ROD | >13.45 µM
CC(C)c1c(Cc2ccccc2)n(CCCCC(N)=O)c(=O)[nH]c1=O | MT-4 | EHO | >100 µM
COc1ccc(CCN2C(=O)/C(=C\c3cc(OC)c(OC)c(OC)c3)N(CCc3ccc(OC)c(OC)c3)C2=S)cc1OC | MT-4 | ROD | >13.7 µg/mL
Fc1ccccc1-c1nnc2sc(CC34CC5CC(CC(C5)C3)C4)nn12 | MT-4 | ROD | >14.9 µg/mL
Cc1c(Cc2ccccc2)nc(OC(C)C)[nH]c1=O | MT-4 | ROD | >200 µM
Clc1ccccc1-c1nnc2sc(CC34CC5CC(CC(C5)C3)C4)nn12 | MT-4 | ROD | >12.4 µg/mL
CC1(C)C(N)=C(c2ccccc2)S(=O)(=O)N1Cc1ccccc1 | MT-4 | ROD | >125 µg/mL
CC(C)Oc1nc(Cc2ccccc2)cc(=O)[nH]1 | MT-4 | ROD | >200 µM
CC1(C)C(N)=C(c2ccccc2)S(=O)(=O)N1Cc1cccc(Cl)c1 | MT-4 | ROD | >125 µg/mL
COc1ncnc(NS(=O)(=O)c2ccc(N=C3C(=O)N(CN4CCOCC4)c4ccc(C)cc43)cc2)c1OC | MT-4 | ROD | >9.3 µg/mL
CC1(Cc2ccccc2)OS(=O)(=O)C(c2ccccc2)=C1N | MT-4 | ROD | >125 µg/mL
Cn1c2ccccc2c2c1cc(C#N)c(=O)n2-c1ccc([N+](=O)[O-])cc1 | MT-4 |  | 0.25 µM
COc1c(Cl)cc(C(=CCCCCN(C(=O)C=C(c2cc(Cl)c(OC)c(C(=O)O)c2)c2cc(Cl)c(OC)c(C(=O)O)c2)[C@H]2CC[C@]3(C)C4CC[C@@]5(C)C(CC[C@@H]5C(C)CCCC(C)C)C4CC[C@H]3C2)c2cc(Cl)c(OC)c(C(=O)O)c2)cc1C(=O)O | MT-4 | ROD | 8.2 µM
CCC(C)Oc1nc(Cc2ccccc2)cc(=O)[nH]1 | MT-4 | ROD | >200 µM
Cc1[nH]c(=S)n(Nc2cccc(Cl)c2)c1-c1cccc(C#N)c1 | MT-4 | ROD | >99.4 µM
CCn1cc(C(=O)O)c(=O)c2cc(F)c(N3CCN(c4ccccc4OC)CC3)c(OC(F)F)c21 | MT-4 | ROD | 0.3 µM
O=c1c2ccccc2nc2sc(Nc3ccccc3)nn12 | MT-4 | ROD | 42.9 µg/mL
Cc1cccc(O)c1O | MT-4 | ROD | 86 µg/mL
CC(C)CCC[C@@H](C)[C@H]1CC[C@H]2[C@@H]3CC[C@H]4C[C@H](NC(=O)C=C(c5cc(Cl)c(O)c(C(=O)O)c5)c5cc(Cl)c(O)c(C(=O)O)c5)CC[C@]4(C)[C@H]3CC[C@]12C | MT-4 | ROD | 5.1 µM
Cc1ncn(Nc2ccccc2)c1-c1ccccc1 | MT-4 | ROD | >52.18 µM
CCOCn1c(Cc2ccccc2)c(C(C)C)c(=O)[nH]c1=O | MT-4 | EHO | >100 µM
CC(C)CCC[C@@H](C)[C@H]1CC[C@H]2[C@@H]3CC[C@H]4C[C@@H](CCC=C(c5cc(Cl)c(O)c(C(=O)O)c5)c5cc(Cl)c(O)c(C(=O)O)c5)CC[C@]4(C)[C@H]3CC[C@]12C | MT-4 | ROD | 4 µM
Cc1ccc(Nn2c(-c3ccccc3)c(C)[nH]c2=S)cc1Cl | MT-4 | ROD | >44.29 µM
COc1ccc(CCN2C(=O)/C(=C\c3ccccc3Cl)N(CCc3ccc(OC)c(OC)c3)C2=S)cc1OC | MT-4 | ROD | >19.5 µg/mL
CCc1c(Sc2ccccc2)n(COCc2ccccc2)c(=O)[nH]c1=O | MT-4 | ROD | >30 µM
O=C(O)Cc1cc(O)ccc1O | MT-4 | ROD | 9 µg/mL
CCn1c(C)c(C(=O)OC)c(C(=O)OC)c1Cc1ccccc1 | CEM + CEM-SS | ROD | >10 µM
Cc1cccc(-c2nnc3sc(CC45CC6CC(CC(C6)C4)C5)nn23)c1 | MT-4 | ROD | >10.9 µg/mL
COC(=O)/C=C1\S/C(=N/N=C/c2ccc(Cl)cc2)NC1=O | MT-4 | ROD | >4.23 µM
CCOC(=O)CCCCn1c(Cc2ccccc2)c(C(C)C)c(=O)[nH]c1=O | MT-4 | EHO | >100 µM
COc1c(Cl)cc(C(=CCN[C@H]2CC[C@@]3(C)[C@@H](CC[C@@H]4[C@@H]3CC[C@]3(C)[C@@H]([C@H](C)CCCC(C)C)CC[C@@H]43)C2)c2cc(Cl)c(OC)c(C(=O)O)c2)cc1C(=O)O | MT-4 | ROD | >125 µM
Cc1ncn(Nc2cccc(Cl)c2)c1-c1cccc(C#N)c1 | MT-4 | ROD | >10.9 µg/mL
C[C@]12CCC3C(CC[C@H]4C[C@@H](CCC=C(c5cc(Cl)c(O)c(C(=O)O)c5)c5cc(Cl)c(O)c(C(=O)O)c5)CC[C@]34C)C1CC[C@@H]2CCC=C(c1cc(Cl)c(O)c(C(=O)O)c1)c1cc(Cl)c(O)c(C(=O)O)c1 | MT-4 | ROD | 74 µM
COc1ccc(CCN2C(=O)/C(=C\c3ccccc3)N(CCc3ccc(OC)c(OC)c3)C2=S)cc1OC | MT-4 | ROD | >56.6 µg/mL
CC1=C(N)C(C)(Cc2ccccc2)OS1(=O)=O | MT-4 | ROD | >125 µg/mL
COc1ncnc(NS(=O)(=O)c2ccc(N=C3C(=O)Nc4ccccc43)cc2)c1OC | MT-4 | ROD | >104 µg/mL
O=C(O)c1ccc(O)c(O)c1 | MT-4 | ROD | 8 µg/mL
Nc1nc2c(ncn2COCCO)c(=O)[nH]1 | MT-4 | ROD | >555 µM
CCN(CC)CN1C(=O)C(=Nc2ccc(S(=O)(=O)Nc3ncnc(OC)c3OC)cc2)c2ccccc21 | MT-4 | ROD | >86 µg/mL

8 of the rows above, restated:

| SMILES | cell line | strain | value |
|---|---|---|---|
| COc1ccc(CCN2C(=O)/C(=C\c3ccccc3Cl)N(CCc3ccc(OC)c(OC)c3)C2=S)cc1OC | MT-4 | ROD | >19.5 µg/mL |
| CC1(Cc2ccccc2)OS(=O)(=O)C(c2ccccc2)=C1N | MT-4 | ROD | >125 µg/mL |
| CCN(CC)CN1C(=O)C(=Nc2ccc(S(=O)(=O)Nc3ncnc(OC)c3OC)cc2)c2ccccc21 | MT-4 | ROD | >86 µg/mL |
| COc1ccc(CCN2C(=O)/C(=C\c3ccccc3)N(CCc3ccc(OC)c(OC)c3)C2=S)cc1OC | MT-4 | ROD | >56.6 µg/mL |
| Clc1cccc(-c2nnc3sc(CC45CC6CC(CC(C6)C4)C5)nn23)c1 | MT-4 | ROD | >125 µg/mL |
| Nc1nc2c(ncn2COCCO)c(=O)[nH]1 | MT-4 | ROD | >555 µM |
| COC(=O)/C=C1\S/C(=N/N=C/c2ccc(Cl)cc2)NC1=O | MT-4 | ROD | >4.23 µM |
| Cc1cccc(-c2nnc3sc(CC45CC6CC(CC(C6)C4)C5)nn23)c1 | MT-4 | ROD | >10.9 µg/mL |

Blank or dashed fields: not listed here. ECn is the concentration giving n% inhibition of infection, replication or growth.